Compound potency records, mixed from different reports. Data source: NIAID ChemDB in PubChem.

Common to all: whole-cell or culture tests; agent: HIV-1; cells: HeLa; read-out: EC50

Conditions beyond the fields shown may differ between rows.

compound,strain,mutations,read by,setting,value
N#Cc1cc2[nH]c3ccccc3c2n(-c2ccc([N+](=O)[O-])cc2)c1=O,Recombinant,RT-M184V,luciferase,,0.62 µM
Cc1cc(S(N)(=O)=O)ccc1NC(=O)COc1ccc(Cl)cc1C(=O)c1cc(C#N)cc(C(=O)O)c1,,K103N,,,1.3 µM
Cn1c2ccccc2c2c1cc(C#N)c(=O)n2-c1ccc([N+](=O)[O-])cc1,Recombinant,RT-V118I M184V,luciferase,,0.189 µM
CCn1nc(Cc2ccc(C)cc2)cc1C1CCN(C[C@H]2CN([C@@H](C(=O)O)C(C)(C)C)C[C@@H]2c2cccc(F)c2)CC1,BaL,,β-galactosidase,50% human serum,<0.033 µM
CCOC(=O)c1cc(C#N)cc(C(=O)c2cc(Cl)ccc2OCC(=O)Nc2ccc(S(N)(=O)=O)cc2C)c1,,Y181C,,,0.0042 µM
Cc1cc2c(C)cccc2c(-n2c(C)nnc2SCC(=O)Nc2ccccc2Br)c1C,,Y188L,,,0.158 µM
CC(=O)c1cc(C#N)cc(C(=O)c2cc(Cl)ccc2OCC(=O)Nc2ccc(S(N)(=O)=O)cc2C)c1,,K103N,,,0.0013 µM
Cc1cn([C@H]2C[C@H](N=[N+]=[N-])[C@@H](CO)O2)c(=O)[nH]c1=O,NL4-3 WT,,luciferase,,0.0164 µM
Cc1ccc2ccccc2c1-n1c(C)nnc1SCC(=O)Nc1ccccc1Br,,Y188L,,,0.724 µM
CCn1nc(Cc2ccc(C(C)C)cc2)cc1C1CCN(C[C@H]2CN([C@@H](C(=O)O)C(C)(C)C)C[C@@H]2c2cccc(F)c2)CC1,BaL,,β-galactosidase,50% human serum,<0.033 µM
Cc1nnc(SCC(=O)Nc2ccc(S(N)(=O)=O)cc2Cl)n1-c1cccc2cc(Br)cnc12,,,,,0.0008 µM
CCOc1ccc(Cc2cc(C3CCN(C[C@H]4CN([C@@H](C(=O)O)[C@H](C)CC)C[C@@H]4c4cccc(F)c4)CC3)n(CC)n2)cc1F,BaL,,β-galactosidase,50% human serum,<0.033 µM
Cc1cc(C)c2ccc(C)c(-n3c(SCC(=O)Nc4ccc(S(N)(=O)=O)cc4Cl)nnc3C(F)(F)F)c2n1,,,,,0.001 µM
Cc1cc(S(N)(=O)=O)ccc1NC(=O)COc1ccc(Cl)cc1C(=O)c1cc(C#N)cc(C(N)=O)c1,,Y181C,,,>2 µM
CC[C@@H](C)[C@H](C(=O)O)N1C[C@H](CN2CCC(c3cc(Cc4ccc(Oc5ccccc5)cc4)nn3CC)CC2)[C@@H](c2cccc(F)c2)C1,BaL,,β-galactosidase,,<0.0037 µM
Cc1cc2cccc(C)c2c(-n2c(C)nnc2SCC(=O)Nc2ccccc2Br)c1C,,Y188L,,,0.2 µM
CC[C@@H](C)[C@H](C(=O)O)N1C[C@H](CN2CCC(c3cc(Cc4ccc(OC)c(OC)c4)nn3CC)CC2)[C@@H](c2cccc(F)c2)C1,BaL,,β-galactosidase,50% human serum,<0.033 µM
Cc1ccc(NC(=O)CSc2nnc(C)n2-c2c(C)ccc3ccccc23)c(Cl)c1,,Y188L,,,0.2 µM

2 of the rows above, restated:

| compound | strain | mutations | read by | setting | value |
|---|---|---|---|---|---|
| CC(=O)c1cc(C#N)cc(C(=O)c2cc(Cl)ccc2OCC(=O)Nc2ccc(S(N)(=O)=O)cc2C)c1 |  | K103N |  |  | 0.0013 µM |
| CC[C@@H](C)[C@H](C(=O)O)N1C[C@H](CN2CCC(c3cc(Cc4ccc(Oc5ccccc5)cc4)nn3CC)CC2)[C@@H](c2cccc(F)c2)C1 | BaL |  | β-galactosidase |  | <0.0037 µM |

ECn is the concentration giving n% inhibition of infection, replication or growth. Blank or dashed fields: not listed here.